A mixed list of measured activities; the numbers were collected in NIAID ChemDB.

All rows: enzyme or target tests

a–b is a range or a potency band. Fold resistance has wild type as its base. Neighbouring rows are from separate reports. ICn: concentration for n% inhibition. Percent inhibition refers to the dose given; in toxicity tests it is the harm to the cells. Blank or dashed fields: not listed here.

compound,read by,read-out,protein,dose,organism,strain or isolate,changes,result
O=C(Nc1cccc(-c2nc(C(=O)O)c(O)c(=O)[nH]2)c1)Nc1cccc([N+](=O)[O-])c1,,IC50,HCV polymerase,,Hepatitis C virus,,,<100 µM
Cc1cc(S(=O)(=O)Nc2cc(-c3ccccc3)sc2C(=O)O)c(C)cc1Cl,,IC50,NS3 ATPase,,Hepatitis C virus,,,5–20 µM
CC1=NCCN1c1cc(C(=O)Nc2ccc3[nH]ncc3c2)c(F)cc1F,,inhibition,Reverse transcriptase,1 µg/mL,Hepatitis B virus,,,79%
O=C(Nc1cccc(-c2nc(C(=O)O)c(O)c(=O)[nH]2)c1)c1cc(Cl)sc1Cl,,IC50,HCV polymerase,,Hepatitis C virus,,,<100 µM
CC1CCC(C(=O)N(c2cc(-c3ccc(-c4ccc(Cl)cc4)cc3)sc2C(=O)O)C(C)C)CC1,,IC50,NS3 ATPase,,Hepatitis C virus,,,<5 µM
CC(=O)N[C@@H](CC(=O)O)C(=O)N[C@@H](CCC(=O)O)C(=O)N[C@H](C(=O)N[C@@H](CCC(=O)O)C(=O)N[C@@H](CC1CCCCC1)C(=O)N[C@@H](CS)C(=O)O)C(c1ccccc1)c1ccccc1,,IC50,HCV NS3 protease,,Hepatitis C virus,,,0.05 µM
Cc1ccc(S(=O)(=O)Nc2cc(-c3ccccc3)sc2C(N)=O)cc1,,IC50,NS3 ATPase,,Hepatitis C virus,,,5–20 µM
CC(=O)N[C@@H](CC(=O)O)C(=O)N[C@@H](C(=O)N[C@@H](CC(C)C)C(=O)N[C@@H](CCC(=O)O)C(=O)N[C@@H](CC1CCCCC1)C(=O)N[C@@H](CS)C(=O)O)C(c1ccccc1)c1ccccc1,,IC50,HCV NS3 protease,,Hepatitis C virus,,,0.276 µM
C=C[C@H]1CC1(NC(=O)[C@@H]1C[C@@H](Oc2cc(-c3ccccc3)nc3cc(OC)ccc23)CN1C(=O)[C@@H](NC(=O)[C@@H](CC(=O)OCC(C)(C)C)C1CCCCC1)C(C)(C)C)C(=O)O,,IC50,HCV NS3/NS4A protease,,Hepatitis C virus,,,0.042 µM
O=C(Nc1ccc2cn[nH]c2c1)c1cc(N2CCN(CCO)CC2)c(F)cc1F,,inhibition,Nonstructural protein 5B,10 µg/mL,Hepatitis C virus,,,38%
CC[C@@H](C)[C@@H](NC(=O)[C@H](CC(=O)O)NC(C)=O)C(=O)N[C@@H](CC(C)C)C(=O)N[C@@H](CCC(=O)O)C(=O)N[C@@H](CC1CCCCC1)C(=O)N[C@@H](CS)C(=O)O,,IC50,HCV NS3 protease,,Hepatitis C virus,,,0.33 µM
C=C[C@H]1CC1(NC(=O)[C@@H]1C[C@@H](Oc2nc(-c3ccccc3)nc3ccccc23)CN1C(=O)[C@@H](Nc1ccc(C(=O)OC(C)(C)C)cc1)C(C)(C)C)C(=O)O,,IC50,HCV NS3/NS4A protease,,Hepatitis C virus,,,0.19 µM
O=C(O)[C@H]1O[C@@H](Oc2cc3oc(-c4ccccc4)cc(=O)c3c(O)c2O)[C@H](O)[C@@H](O)[C@@H]1O,SYBR Green,inhibition,Replicase complex,20 µM,Hepatitis C virus,J4,,61.8%
CC[C@H]1CC1(NC(=O)[C@@H]1C[C@@H](OCc2cccc3cccnc23)CN1C(=O)[C@@H](NC(=O)OC(C)(C)C)C1CCCCC1)C(=O)O,,IC50,HCV NS3/NS4A protease,,Hepatitis C virus,,,32 µM
CC1CCC(C(=O)N(c2cc(-c3ccc(F)cc3)sc2C(=O)O)C(C)C)CC1,,IC50,NS3 ATPase,,Hepatitis C virus,,,<5 µM
C[C@@]1(O)[C@H](O)[C@@H](COP(=O)(O)OP(=O)(O)OP(=O)(O)O)O[C@@]1(C#N)c1ccc2c(N)ncnn12,radiometric,fold resistance,Nonstructural protein 5B,,Hepatitis C virus,2a JFH-1,S282T M289L,470
O=C(Nc1ccc2[nH]ncc2c1)c1cc(C2CCNCCN2)c(F)cc1F,,inhibition,Nonstructural protein 5B,1 µg/mL,Hepatitis C virus,,,21%
C[C@@H]1O[C@@H](OC[C@H]2O[C@@H](Oc3c(-c4ccc(O)c(O)c4)oc4cc(O)cc(O)c4c3=O)[C@H](O)[C@@H](O)[C@@H]2O)[C@H](O)[C@H](O)[C@H]1O,SYBR Green,inhibition,Replicase complex,20 µM,Hepatitis C virus,J4,,30.3%
O=C(O)c1nc(-c2nccs2)[nH]c(=O)c1O,,IC50,HCV polymerase,,Hepatitis C virus,,,<100 µM
O=C(Nc1ccc2cn[nH]c2c1)c1cc(NCc2ccccn2)c(F)cc1F,,inhibition,Nonstructural protein 5B,1 µg/mL,Hepatitis C virus,,,50%
O=c1cc(-c2ccc(O)c(O)c2)oc2ccccc12,SYBR Green,inhibition,Replicase complex,20 µM,Hepatitis C virus,J4,,45.4%
CC(C)(C)OC(=O)N1CCc2ccccc2C1CC(=O)Nc1ccsc1-c1nc(C(=O)O)c(O)c(=O)[nH]1,,IC50,HCV polymerase,,Hepatitis C virus,,,<25 µM
CC(C)(C)OC(=O)N[C@H](C(=O)N1C[C@H](Oc2cc(-c3ccccc3)nc3ccc([N+](=O)[O-])cc23)C[C@H]1C(=O)NC1(C(=O)O)CC1)C1CCCCC1,,IC50,HCV NS3/NS4A protease,,Hepatitis C virus,,,2.8 µM
CCN(Cc1ccccc1)C(=O)Nc1ccsc1-c1nc(C(=O)O)c(O)c(=O)[nH]1,,IC50,HCV polymerase,,Hepatitis C virus,,,<25 µM
CN1CCN(c2cc(C(=O)Nc3ccc4[nH]ncc4c3)c(F)cc2F)CC1,,IC50,Reverse transcriptase,,Hepatitis B virus,,,0.01–0.1 µg/mL
Cc1noc(C)c1S(=O)(=O)Nc1cc(-c2ccccc2)sc1C(=O)O,,IC50,NS3 ATPase,,Hepatitis C virus,,,5–20 µM
Cc1ccccc1S(=O)(=O)NC(=O)Nc1cscc1-c1nc(C(=O)O)c(O)c(=O)[nH]1,,IC50,HCV polymerase,,Hepatitis C virus,,,<25 µM
CCC1CCC1(NC(=O)[C@@H]1C[C@@H](Oc2cc(-c3ccccc3)nc3cc(OC)ccc23)CN1C(=O)[C@@H](NC(=O)OC(C)(C)C)C(C)(C)C)C(=O)O,,IC50,HCV NS3/NS4A protease,,Hepatitis C virus,,,0.4 µM
O=C(Nc1cc(-c2ccccc2)sc1C(=O)O)c1ccc(F)cc1F,,IC50,NS3 ATPase,,Hepatitis C virus,,,>20 µM
O=c1c(O)c(-c2ccc(O)c(O)c2)oc2cc(O)cc(O)c12,SYBR Green,inhibition,Replicase complex,20 µM,Hepatitis C virus,J4,,83.7%
CC(C)(OC(=O)N[C@H](C(=O)N1C[C@H](OCc2cccc3ccccc23)C[C@H]1C(=O)NC1(C(=O)O)CC1)C1CCCCC1)C(Cl)(Cl)Cl,,IC50,HCV NS3/NS4A protease,,Hepatitis C virus,,,34 µM
CC(C)N(C(=O)c1ccc(Cl)cc1Cl)c1c(C(=O)O)sc(-c2ccccc2)c1F,,IC50,NS3 ATPase,,Hepatitis C virus,,,5–20 µM
O=C(Nc1ccc2cn[nH]c2c1)c1cc(N2CCNCC2)c(F)cc1F,,inhibition,Nonstructural protein 5B,0.1 µg/mL,Hepatitis C virus,,,20%
CCCC[C@H](NC(=O)[C@H](CCC(=O)O)NC(=O)[C@H](CC(=O)O)NC(C)=O)C(=O)N[C@@H](CCC(=O)O)C(=O)N[C@@H](CC1CCCCC1)C(=O)N[C@@H](CS)C(=O)O,,IC50,HCV NS3 protease,,Hepatitis C virus,,,0.224 µM
C=C[C@H]1CC1(NC(=O)[C@@H]1C[C@@H](Oc2cc(-c3ccccc3)nc3ccc(N)cc23)CN1C(=O)[C@@H](NC(=O)OC(C)(C)C)C1CCCCC1)C(=O)O,,IC50,HCV NS3/NS4A protease,,Hepatitis C virus,,,0.66 µM
C=C[C@@H]1C[C@]1(NC(=O)[C@@H]1C[C@@H](Oc2nccc3ccc(Br)cc23)CN1C(C)=O)C(=O)NS(=O)(=O)C1CC1,FRET,IC50,Nonstructural protein 3/4A,,Hepatitis C virus,1b A156S,,>3 µM
O=C(Nc1ccc2[nH]ncc2c1)c1cc(N2CCN(CCO)CC2)c(F)cc1F,,inhibition,Nonstructural protein 5B,0.1 µg/mL,Hepatitis C virus,,,8%
O=C(Nc1ccsc1-c1nc(C(=O)O)c(O)c(=O)[nH]1)OCc1ccccc1-c1ccccc1,,IC50,HCV polymerase,,Hepatitis C virus,,,<25 µM
O=C(Nc1ccc2cn[nH]c2c1)c1cc(C2CCNCCN2)c(F)cc1F,,IC50,Reverse transcriptase,,Hepatitis B virus,,,0.1–1 µg/mL
O=C(Nc1cccc(-c2nc(C(=O)O)c(O)c(=O)[nH]2)c1)Nc1ccccc1C(F)(F)F,,IC50,HCV polymerase,,Hepatitis C virus,,,<100 µM
O=C(O)c1sc(-c2ccccc2)cc1NS(=O)(=O)c1ccc(Cl)s1,,IC50,NS3 ATPase,,Hepatitis C virus,,,<5 µM
CCOc1ccc(NC(=O)Nc2cccc(-c3nc(C(=O)O)c(O)c(=O)[nH]3)c2)cc1,,IC50,HCV polymerase,,Hepatitis C virus,,,<100 µM
CC[C@H](C)[C@H](NC(=O)[C@@H](NC(=O)[C@H](CCC(=O)O)NC(C)=O)C(c1ccccc1)c1ccccc1)C(=O)N[C@@H](CC1CCCCC1)C(=O)N[C@@H](CS)C(=O)O,,IC50,HCV NS3 protease,,Hepatitis C virus,,,2.4 µM

The last 3 rows once more:

compound,read by,read-out,protein,dose,organism,strain or isolate,changes,result
O=C(O)c1sc(-c2ccccc2)cc1NS(=O)(=O)c1ccc(Cl)s1,,IC50,NS3 ATPase,,Hepatitis C virus,,,<5 µM
CCOc1ccc(NC(=O)Nc2cccc(-c3nc(C(=O)O)c(O)c(=O)[nH]3)c2)cc1,,IC50,HCV polymerase,,Hepatitis C virus,,,<100 µM
CC[C@H](C)[C@H](NC(=O)[C@@H](NC(=O)[C@H](CCC(=O)O)NC(C)=O)C(c1ccccc1)c1ccccc1)C(=O)N[C@@H](CC1CCCCC1)C(=O)N[C@@H](CS)C(=O)O,,IC50,HCV NS3 protease,,Hepatitis C virus,,,2.4 µM